Compound potency records, mixed from different reports. Data source: NIAID ChemDB in PubChem.

Shared fields: tests in culture

Fold resistance: result on the changed form divided by that on wild type.

| SMILES | agent | strain or isolate | mutations | cell line | method | setting | read-out | dose | value |
|---|---|---|---|---|---|---|---|---|---|
| C#C[C@]1(CO)O[C@@H](n2cnc3c(N)nc(F)nc32)CC1O | HIV-2 | ROD9 | K65R K70R Q151M M184V | MAGIC-5A | β-galactosidase / absorbance |  | EC50 |  | 0.007 µM |
| O=C1N(Cc2ccc(CO)cc2)[C@H](Cc2ccccc2)[C@H](O)[C@@H](O)[C@@H](Cc2ccccc2)N1Cc1ccc(CO)cc1 | HIV-1 | B clinical isolate |  | PBMC | p24 |  | inhibition | 0.14 µM | 90% |
| CC(C)(C)NC(=O)[C@@H]1C[C@@H]2CCCC[C@@H]2CN1C[C@@H](O)[C@H](Cc1ccccc1)NC(=O)[C@H](CC(N)=O)NC(=O)c1ccc2ccccc2n1 | HIV-1 | NL4-3 | PR-M46I L63P V82T I84V | MT-4 | p24 |  | EC95 |  | 0.2 µM |
| CC(C)=CCN1Cc2cc(Cl)cc3[nH]c(=S)n(c23)C[C@@H]1C | HIV-1 | HXB2 | RT-M41L T215Y | HT4 + HT4 LacZ-1 | plaque count |  | fold resistance |  | 1 |
| Cc1cn([C@H]2C=C[C@@H](CO)O2)c(=O)[nH]c1=O | HIV-1 | Recombinant | RT-A62T V118I M184V | HeLa | luciferase |  | fold resistance |  | 1.1 |
| O=C(O)P(=O)(O)O | HIV-1 | IIIB |  | PBL |  | 14 d | inhibition | 128 µM | 0% |
| O=c1[nH]cnc2c1ncn2[C@H]1CC[C@@H](CO)O1 | HIV-1 | Recombinant | RT-M184V | HeLa | luciferase |  | fold resistance |  | 2.4 |
| Cc1cc(S(N)(=O)=O)ccc1NC(=O)COc1ccc(Cl)cc1C(=O)c1cc(Cl)cc(C#N)c1 | HIV-1 | NRTI resistant (RT A62V V75I F77L Q151M) MDR151 | RT-A62V V75I F77L Q151M | MAGI | β-galactosidase |  | EC50 |  | 0.002 µM |
| Cn1c2ccccc2c2c1cc(C#N)c(=O)n2-c1ccc([N+](=O)[O-])cc1 | HIV-1 | Recombinant | RT-M184V | HeLa | luciferase |  | fold resistance |  | 3.9 |
| Nc1ncnc2c1ncn2[C@H]1CC[C@@H](CO)O1 | HIV-2 | LAV-2 |  | CEM | virus yield |  | inhibition | 10 µM | 99% |
| Cc1cn([C@H]2C[C@H](F)[C@@H](CO)O2)c(=O)[nH]c1=O | HIV-2 | 2300 |  | PBMC | ELISA |  | EC50 |  | 0.006 µM |
| CC(C)=CCN1Cc2cc(Cl)cc3[nH]c(=S)n(c23)C[C@@H]1C | HIV-1 |  | RT-K70R K103N | MT-4 |  |  | EC95 |  | >3 µM |
| c1cc(CN2CCCNCCNCCCNCC2)ccc1CN1CCCNCCNCCCNCC1 | HIV-1 | PCP1 CLADE C R5 CXCR6 |  | PBMC | p24 |  | inhibition | 0.1 µM | 18% |
| O=C1N(Cc2ccc(CO)cc2)[C@H](Cc2ccccc2)[C@H](O)[C@@H](O)[C@@H](Cc2ccccc2)N1Cc1ccc(CO)cc1 | HIV-1 | NL4-3 | PR-L63P | MT-4 | p24 |  | EC95 |  | 0.1 µM |

Repeating the first 2 entries:

SMILES	agent	strain or isolate	mutations	cell line	method	setting	read-out	dose	value
C#C[C@]1(CO)O[C@@H](n2cnc3c(N)nc(F)nc32)CC1O	HIV-2	ROD9	K65R K70R Q151M M184V	MAGIC-5A	β-galactosidase / absorbance		EC50		0.007 µM
O=C1N(Cc2ccc(CO)cc2)[C@H](Cc2ccccc2)[C@H](O)[C@@H](O)[C@@H](Cc2ccccc2)N1Cc1ccc(CO)cc1	HIV-1	B clinical isolate		PBMC	p24		inhibition	0.14 µM	90%

An empty or dashed field is not shown. ECn: concentration that inhibits the pathogen or its effect by n%. Percent inhibition refers to the dose given; in toxicity tests it is the harm to the cells. Lines come from different laboratories, so protocols vary.